In the experiment the test system is Escherichia coli expressing NDM-1 (CLB30005, CLB30016). The settings on record: NDM-1 strain, with imipenem 1 μg/ml, 95% inhibition of growth.

Take `NC[C@H](O)CNS(=O)(=O)c1ccc(-c2ccnc(N)c2)c(-c2nn[nH]n2)c1S(N)(=O)=O`: the “Escherichia coli MITC95” value is 0.1953 µM.

Source of the values: US10221163B2 (priority 2015, dated 2019).
